Experiment: quantum yield of streptavidin-bound dyes on direct excitation in presence of polymer 1
Type: physicochemical
Conditions: direct excitation at dye absorbance maximum

Substance | decrease of quantum yield in the presence of polymer 1
RhB-strept: rhodamine B-labeled streptavidin, about 4.6 dyes/protein | about 38%
T-red-strept: Texas Red X-labeled streptavidin, about 2.9 dyes/protein | about 63%

Source: US8617819B2, “Polymers for analyte detection” (Massachusetts Institute of Technology, priority 2004, dated 2013)
